Experimental data from patent US20100204237A1, “Hydroxypyrimidinone derivatives having inhibitory activity against HIV integrase” (priority 2003, published 2010).

Legend:
[1] = target: HIV integrase (Human immunodeficiency virus type 1 group M subtype B, UniProt P04585); assay: inhibitory activities against integrase (Experimental Example 1); type: biochemical; conditions: integrase inhibition, OD405 nm plate assay
Protocol: The inhibitory activities against integrase were determined by the assay described below.
A substrate DNA, solution (2 pmol/μl) and a target DNA solution (5 pmol/μl) were prepared in the manner as described in Experimental example 1 of WO 2004/024693. Before using the DNA solutions, complementary chains were annealed by slowly cooling after boiling. Substrate DNA and target DNA had sequences as described in that Experimental example.
Streptavidin, obtained from Vector Laboratories, was dissolved in 0.1 M carbonate buffer (composition: 90 mM Na2CO3, 10 mM NaHCO3) at concentration of 40 μg/ml. After coating each well of immunoplates (obtained from NUNC) with 50 μl of the above solution at 4° C. over night, each well was washed twice with PBS (composition: 13.7 mM NaCl, 0.27 mM KCl, 0.43 mM Na2HPO4, 0.14 mM KH2PO4) and blocked with 300 μl of 1% skim milk in PBS for 30 min. Additionally, each well was washed twice with PBS and added 50 μl of substrate DNA solution (2 pmol/μl). The immunoplates were kept at room temperature for 30 min while shaking. Then, each well was washed twice with PBS and once with H2O.
Subsequently, in the each well prepared above were added 51 μl of the reaction solution prepared from 12 μl of the buffer (composition: 150 mM MOPS (pH 7.2), 75 mM MnCl2, 50 mM 2-mercaptoethanol, 25% glycerol, 500 μg/ml bovine serum albumin-fraction V), and 39 μl of the distilled water. Then 9 μl of an integrase solution (30 pmol) was added and mixed well. In the well of negative control (NC) was added 9 μl of the integrase dilution buffer (composition: 20 mM MOPS (pH7.2), 400 mM potassium glutamate, 1 mM EDTA, 0.1% NP-40, 20% glycerol, 1 mM DTT, 4M urea), and mixed well using a plate mixer.
The plates were incubated at 30° C. for 60 minutes. The reaction solution was removed and washed three times with 250 μl of washing buffer (composition: 150 mM MOPS (pH7.2), 50 mM 2-mercaptoethanol, 25% glycerol, 500 μg/ml bovine serum albumin-fraction V).
Then each well was added with 53 μl of reaction solution prepared from 12 μl of buffer (composition: 150 mM MOPS (pH7.2), 75 mM MgCl2, 50 mM 2-mercaptoethanol, 25% glycerol, 500 μg/ml bovine serum albumin-fraction V) and 41 μl of distilled water. Further, each well was added with 6 μl of DMSO solution of a compound to be tested, and the well of positive control (PC) was added with 6 μl of DMSO, and mixed well by a plate mixer. After incubating the plate for 30 minutes at 30° C., was added 1 μl of target DNA (5 pmol/μl), and mixed well by a plate mixer.
After incubation for 10 minutes at 30° C., each plate was washed twice with PBS after removal of the reaction solution. Then, 100 μl of ×2000 diluted solution of anti-digoxigenin antibody labeled with alkaline phosphatase (sheep Fab fragment: Boehringer) was added, allowed to bind for 1 hour at 30° C., and washed twice with PBS containing 0.05% Tween20 and once with PBS in this sequence. Next, 150 μl of the Alkaline phosphatase coloring buffer (composition: 10 mM p-Nitrophenylphosphate (obtained from Vector Laboratories), 5 mM MgCl2, 100 mM NaCl, 100 mM Tris-HCl (pH 9.5)) was added and allowed to react for 2 hours at 30° C. Then the reaction was terminated by the addition of 50 μl of 1N NaOH solution. The optical density at 405 nm (OD405 nm) of each well was measured and the inhibition rate (IC50) was determined by the following expression.
The inhibition rate (%)=100[1−{(C abs.−NC abs.)/(PC abs.−NC abs.)}]
C abs.; the OD of the well of the compound
NC abs.: the OD of the negative control (NC)
PC abs.: the OD of the positive control (PC)

[2] = test system: HIV (HTLV-IIIB strain); assay: inhibitory activities against HIV cell proliferation, MT-4 cells, MTT (Experimental Example 2); type: cell-based; conditions: concentration at which 50% of cytopathy caused by viruses was inhibited, 4 days
Protocol: The inhibitory activities against HIV cell proliferation were determined by the assay method described below. • (1) HIV (HTLV-IIIB strain) persistence infection human T-cell strain Molt-4 clone 8 was cultured on RPMI-1640 medium supplemented with 10% fetal bovine serum, and the supernatant was measured for viral titer after filtration, and stored at −80° C. On the other hand, each anti-HIV active agent was diluted in the above culture medium to a predetermined concentration, and each well of a 96-well microplate was added with 50 μl of the resultant active agent solution. Then, 100 μl (3.5×10^4 cells) each of MT-4 cell suspension was poured into each well, followed by each 50 μl (60 pfu (plaque forming unit)) of the HIV-containing supernatant diluted with the above culture medium. • (2) After incubating for 4 days in a carbon dioxide incubator at 37° C., every well was added with 30 μl of 3-(4,5-dimethylthiazole-2-yl)-2,5-diphenyltetrazolium bromide (MTT) 5 mg/ml), PBS, and incubated for another 1 hour. At this time, since living cells reduce MTT to cause precipitation of formazane, 150 μl of cell supernatant was removed from each well, and instead 150 μl of lysis solution (isopropanol supplemented with 10% Triton X-100 and 0.4% (v/v) HCl) was added, to make formazane eluate by shaking with a plate mixer. […] The concentration of Compound at which 50% of cytopathy caused by viruses was inhibited was defined as EC50.

Row | SMILES | Experimental example 1 (IC50, ng/ml) [1] [ng/mL] | Experimental example 2 (EC50, ng/ml) [2] [ng/mL] | Experimental example 1 (IC50, ng/ml) ([1]; tested form: Li salt) [ng/mL] | Experimental example 2 (EC50, ng/ml) ([2]; tested form: Li salt) [ng/mL]
1 | COCC(=O)Nc1ccc(-c2nc(-c3ncc(Cc4ccc(F)cc4)s3)c(O)c(=O)[nH]2)cc1 | 7.2 | 27 | – | –
2 | CC(C)(NC(=O)c1ccccn1)c1nc(-c2ncc(Cc3ccc(F)cc3)s2)c(O)c(=O)[nH]1 | 4.5 | 12 | – | –
3 | Cn1c([C@@H]2CCCN2S(C)(=O)=O)nc(-c2ncc(Cc3ccc(F)cc3)o2)c(O)c1=O | 11 | 5 | – | –
4 | CC(=O)N1CCC[C@H]1c1nc(-c2ncc(Cc3ccc(F)cc3)o2)c(O)c(=O)n1C | – | – | 16 | 1.5
5 | COCC(=O)NC(C)(C)c1nc(-c2ncc(Cc3ccc(F)cc3)s2)c(O)c(=O)[nH]1 | 4.1 | 8.2 | – | –
6 | CN(C)C(=O)C(=O)NC(C)(C)c1nc(-c2ncc(Cc3ccc(F)cc3)s2)c(O)c(=O)n1C | 5 | 7.6 | – | –
7 | CC(=O)NC(C)(C)c1nc(-c2ncc(Cc3ccc(F)cc3)s2)c(O)c(=O)[nH]1 | 4 | 4 | – | –
8 | Cn1c(Cc2ccc(Br)cc2)nc(-c2ncc(Cc3ccc(F)cc3)o2)c(O)c1=O | 17 | 185 | – | –
9 | CN1Cn2c(nc(C(=O)NCc3ccc(F)cc3)c(O)c2=O)C1(C)C | 4.5 | 7.6 | – | –
10 | CC1(C)c2nc(C(=O)NCc3ccc(F)cc3)c(O)c(=O)n2CN1Cc1ccccc1 | 1.8 | 7.1 | – | –
11 | Cn1c(C(C)(C)NS(C)(=O)=O)nc(-c2ncc(Cc3ccc(F)cc3)s2)c(O)c1=O | 5.1 | 6 | – | –
12 | CC(=O)NC(C)(C)c1nc(-c2ncc(Cc3ccc(F)cc3)o2)c(O)c(=O)n1C | 24 | 8.8 | – | –
13 | CCN1Cn2c(nc(C(=O)NCc3ccc(F)cc3)c(O)c2=O)C1(C)C | 4.1 | 10 | – | –
14 | O=C1CCCN1c1ccc(-c2nc(-c3ncc(Cc4ccc(F)cc4)s3)c(O)c(=O)[nH]2)cc1 | 13 | 30 | – | –
15 | CN1C(=O)Cn2c(nc(-c3ncc(Cc4ccc(F)cc4)s3)c(O)c2=O)C1(C)C | 2 | 8.7 | – | –
